Measured values from paper PMC5986058, “Bioinformatic analysis of the fold type I PLP‐dependent enzymes reveals determinants of reaction specificity in L‐threonine aldolase from Aeromonas jandaei” (FEBS Open Bio, 2018).

system: C[C@H](O)[C@H](N)C(=O)O; test: purified protein; details: 50 mM NaPi pH 8, 25 °C, 50 μM PLP

Substance | Km [mM] | kcat [s⁻¹] | kcat/Km [M⁻¹ s⁻¹]
LTAaj (L-threonine aldolase from Aeromonas jandaei; L-allo-threonine aldolase) (Aeromonas jandaei; C196T) | 0.5 | 13.3 | 26000
LTAaj (L-threonine aldolase from Aeromonas jandaei; L-allo-threonine aldolase) (Aeromonas jandaei; S198H) | 5.7 | 5.1 | 900
LTAaj (L-threonine aldolase from Aeromonas jandaei; L-allo-threonine aldolase) (Aeromonas jandaei; R231A) | 7.5 | 0.7 | 90
LTAaj (L-threonine aldolase from Aeromonas jandaei; L-allo-threonine aldolase) (Aeromonas jandaei; H85Y) | 14.8 | 0.01 | 0.7
LTAaj (L-threonine aldolase from Aeromonas jandaei; L-allo-threonine aldolase) (Aeromonas jandaei; R171Q) | 69 | 0.47 | 6.8
LTAaj (L-threonine aldolase from Aeromonas jandaei; L-allo-threonine aldolase) (Aeromonas jandaei; R313H) | 28 | 2.3 | 80
LTAaj (L-threonine aldolase from Aeromonas jandaei; L-allo-threonine aldolase) (Aeromonas jandaei; G200S) | 0.2 | 13.6 | 61000
LTAaj (L-threonine aldolase from Aeromonas jandaei; L-allo-threonine aldolase) (Aeromonas jandaei; E138A) | 2.3 | 3.9 | 1700
LTAaj (L-threonine aldolase from Aeromonas jandaei; L-allo-threonine aldolase) (Aeromonas jandaei; H85F) | 11.5 | 0.05 | 4.5
LTAaj (L-threonine aldolase from Aeromonas jandaei; L-allo-threonine aldolase) (Aeromonas jandaei; R171F) | 18 | 0.23 | 10
